Measured values from several laboratories, pooled; numbers as filed in NIAID ChemDB.

Common to all: whole-cell or culture tests

An empty or dashed field is not shown.

{"compound": "CC(C)Cc1cnn2c3c(c(=O)n(-c4ccc(-c5nc(=O)on5C)cc4)c12)C[C@H](C)N(C(=O)c1ccc(Br)c(C(F)(F)F)c1)C3", "cells": "HepG2.117", "species": "Hepatitis B virus", "measure": "EC50", "read by": "luminescence", "value": "0.05–0.5 µM"}
{"compound": "CC1(C)CC(=O)C2=C(C1)Nc1c(O)cccc1NC2c1ccc(Oc2ccccc2Cl)cc1Cl", "species": "Hepatitis C virus", "measure": "EC50", "strain": "1b", "read by": "luciferase / reporter gene / replicon", "value": "9.9 µM"}
{"compound": "C[C@@H](NC(=O)c1c2n(c(=O)n1-c1ccc(OCC(F)(F)F)cc1)CCN(C(=O)c1ccc(Br)c(Cl)c1)C2)c1ccc(OC(F)(F)F)cc1F", "cells": "HepG2.117", "species": "Hepatitis B virus", "measure": "EC50", "read by": "PCR", "value": "0.5–5 µM"}
{"compound": "Cc1nc(C(=O)N2c3cccc(O)c3NC3=C(C(=O)CC(C)(C)C3)C2c2ccc(OCc3ccccc3)cc2Cl)c(C)o1", "species": "Hepatitis C virus", "measure": "EC50", "strain": "1b", "read by": "luciferase / reporter gene / replicon", "value": "1.14 µM"}
{"compound": "COc1ccc(-n2c(C(=O)N[C@@H](c3ccccc3)C(F)F)c3n(c2=O)CCN(C(=O)c2ccc(Br)c(Cl)c2)C3)cc1", "cells": "HepG2.117", "species": "Hepatitis B virus", "measure": "EC50", "read by": "PCR", "value": "0.1–0.5 µM"}
{"compound": "CC1(C)CC(=O)C2=C(C1)Nc1c(O)cccc1N(C(=O)CCC(=O)N1CCC(C(N)=O)CC1)C2c1ccc(OCc2ccccc2)cc1Cl", "species": "Hepatitis C virus", "measure": "EC50", "strain": "1b", "read by": "luciferase / reporter gene / replicon", "value": "24.52 µM"}
{"compound": "Cc1n[nH]nc1-c1ccc(-n2c(=O)c3c(n4ncc(Cc5ccccc5)c24)CN(C(=O)c2ccc(Br)c(C(F)(F)F)c2)CC3)cc1", "cells": "HepG2.117", "species": "Hepatitis B virus", "measure": "EC50", "read by": "luminescence", "value": "≤0.05 µM"}
{"compound": "C[C@H](NC(=O)c1c2n(c(=O)n1-c1ccc(OCC(F)(F)F)cc1)CCN(C(=O)c1ccc(Br)c(Cl)c1)C2)c1ccc(OCC(N)=O)cc1F", "cells": "HepG2.117", "species": "Hepatitis B virus", "measure": "EC50", "read by": "PCR", "value": "0.1–0.5 µM"}
{"compound": "CNC(=O)c1ccc(-n2c(=O)c3c(n4ncc(CC(C)C)c24)CN(C(=O)c2ccc(Br)c(C(F)(F)F)c2)[C@H](C)C3)cc1", "cells": "HepG2.117", "species": "Hepatitis B virus", "measure": "EC50", "read by": "luminescence", "value": "≤0.05 µM"}
{"compound": "C[C@H](NC(=O)c1c2n(c(=O)n1-c1ccc(OCC(F)(F)F)cc1)CCN(C(=O)c1ccc(Br)c(Cl)c1)C2)c1ccc(OC(F)(F)F)cc1F", "cells": "HepG2.117", "species": "Hepatitis B virus", "measure": "EC50", "read by": "PCR", "value": "0.5–5 µM"}
{"compound": "CC1(C)CC(=O)C2=C(C1)Nc1c(O)cccc1N(C(=O)c1csc(-c3ccncc3)n1)C2c1ccc(OCc2ccccc2)cc1F", "species": "Hepatitis C virus", "measure": "EC50", "strain": "1b", "read by": "luciferase / reporter gene / replicon", "value": "2.08 µM"}
{"compound": "COc1ccc([C@H](C)NC(=O)c2c3n(c(=O)n2-c2ccc(OC(C)C)cc2)CCN(C(=O)c2ccc(Br)c(Cl)c2)C3)c(F)c1", "cells": "HepG2.117", "species": "Hepatitis B virus", "measure": "EC50", "read by": "PCR", "value": "0.1–0.5 µM"}
{"compound": "CC1(C)CC(=O)C2=C(C1)Nc1c(O)cccc1NC2c1cccc(Cl)c1Cl", "species": "Hepatitis C virus", "measure": "EC50", "strain": "1b", "read by": "luciferase / reporter gene / replicon", "value": ">100 µM"}
{"compound": "Cc1cnn(-c2ccc(-n3c(=O)c4c(n5ncc(CC(C)C)c35)CN(C(=O)c3ccc(Br)c(C(F)(F)F)c3)[C@@H](C)C4)cc2)c1", "cells": "HepG2.117", "species": "Hepatitis B virus", "measure": "EC50", "read by": "luminescence", "value": "0.05–0.5 µM"}
{"compound": "CC1(C)CC(=O)C2=C(C1)Nc1c(O)cccc1N(C(=O)C(=O)N1CCCCC1)C2c1ccc(OCc2ccccc2)cc1F", "species": "Hepatitis C virus", "measure": "EC50", "strain": "1b", "read by": "luciferase / reporter gene / replicon", "value": "1.95 µM"}
{"compound": "C[C@H](NC(=O)c1c2n(c(=O)n1-c1ccc(OCC(F)(F)F)cc1)CCN(C(=O)c1ccc(Br)c(Cl)c1)C2)c1ccccc1", "cells": "HepG2.117", "species": "Hepatitis B virus", "measure": "EC50", "read by": "PCR", "value": "0.5–5 µM"}
{"compound": "CC(C)Cc1cnn2c3c(c(=O)n(-c4ccc(-c5nncn5C)cc4)c12)C[C@H](C)N(C(=O)c1ccc(Cl)c(C(F)(F)F)c1)C3", "cells": "HepG2.117", "species": "Hepatitis B virus", "measure": "EC50", "read by": "luminescence", "value": "0.05–0.5 µM"}
{"compound": "Cn1cnc2c(CNC(=O)c3c4n(c(=O)n3-c3ccc(OCC(F)(F)F)cc3)CCN(C(=O)c3ccc(Br)c(Cl)c3)C4)cccc21", "cells": "HepG2.117", "species": "Hepatitis B virus", "measure": "EC50", "read by": "PCR", "value": "0.1–0.5 µM"}
{"compound": "CNC(=O)c1ccc(-n2c(=O)c3c(n4ncc(CC(C)C)c24)CN(C(=O)c2ccc(Br)c(Cl)c2)[C@@H](C)C3)cc1", "cells": "HepG2.117", "species": "Hepatitis B virus", "measure": "EC50", "read by": "luminescence", "value": "0.05–0.5 µM"}
{"compound": "CC(C)C(=O)N1c2cccc(O)c2NC2=C(C(=O)CC(C)(C(C)C)C2)C1c1ccc(OCc2ccccc2)cc1F", "species": "Hepatitis C virus", "measure": "EC50", "strain": "1b", "read by": "luciferase / reporter gene / replicon", "value": "1.38 µM"}
{"compound": "COC(=O)N[C@H](C(=O)N1CCCC1c1ncc(-c2ccc(-c3ccc(-c4cnc([C@@H]5CC(C)CN5C(=O)[C@@H](NC(=O)CO)C(C)C)[nH]4)cc3)cc2)[nH]1)C(C)C", "cells": "ET", "species": "Hepatitis C virus", "measure": "EC50", "strain": "1b", "changes": "Y93H", "read by": "luciferase", "value": "0.000048 µM"}
{"compound": "O=C(c1ccc(Br)c(Cl)c1)N1CCc2c(n3ncc(Cc4ccccc4)c3n(-c3ccc(-n4cccn4)cc3)c2=O)C1", "cells": "HepG2.117", "species": "Hepatitis B virus", "measure": "EC50", "read by": "luminescence", "value": "≤0.05 µM"}
{"compound": "Cc1ccc(C2Nc3cccc(O)c3NC3=C2C(=O)CC(C)(C)C3)c2ccccc12", "species": "Hepatitis C virus", "measure": "EC50", "strain": "1b", "read by": "luciferase / reporter gene / replicon", "value": ">32 µM"}
{"compound": "C[C@@H]1Cn2c(c(C(=O)NCc3ccccc3-c3ncccn3)n(-c3ccc(OC4CC4)cc3)c2=O)CN1C(=O)c1ccc(Br)c(C#N)c1", "cells": "HepG2.117", "species": "Hepatitis B virus", "measure": "EC50", "read by": "PCR", "value": "0.1–0.5 µM"}
{"compound": "CC1CCC(C(=O)N(c2cc(C#CC(C)(C)C)sc2C(=O)O)C2CCC(O)CC2)CC1", "cells": "Huh7", "species": "Hepatitis C virus", "measure": "fold resistance", "strain": "Con1 (gt 1b)", "changes": "I482L", "read by": "luciferase", "value": "101.2"}

The last 2 rows once more:

compound,cells,species,measure,strain,changes,read by,value
C[C@@H]1Cn2c(c(C(=O)NCc3ccccc3-c3ncccn3)n(-c3ccc(OC4CC4)cc3)c2=O)CN1C(=O)c1ccc(Br)c(C#N)c1,HepG2.117,Hepatitis B virus,EC50,,,PCR,0.1–0.5 µM
CC1CCC(C(=O)N(c2cc(C#CC(C)(C)C)sc2C(=O)O)C2CCC(O)CC2)CC1,Huh7,Hepatitis C virus,fold resistance,Con1 (gt 1b),I482L,luciferase,101.2

a–b is a range or a potency band. ECn: concentration that inhibits the pathogen or its effect by n%. Fold resistance has wild type as its base. Conditions beyond the fields shown may differ between rows.